# PubChem BioAssay AID504761 – Drosophila RNAi Screening Center | 2011
# Aim: 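Fly genes whose silencing reduces dengue virus type 2 infection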 (primary screen)
# System: D.Mel-2 cells from Drosophila
# Reagent: long dsRNA against Drosophila genes
# Conditions: infection with dengue virus type 2; dose and infection time not stated
# Measured: 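Cells stained for dengue envelope protein and imaged; percent of infected cells per well on duplicate plates, ranked by infection, with stained nuclei counted for cell number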
# Scale: infection score: higher = more virus-infected cells; cell count: higher = more cells in the well
# Active means: 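Very low infection ranking in both replicate wells (chance probability at most 0.065), then a retest showing infection dropped 1.5-fold or more at p below 0.05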
# Calls: active = confirmed: knock-down lowers infection; inactive = not picked or not confirmed
# The deposit covers about 22,000 reagents; shown is an unselected part of those that have a named target and a result. Over the whole deposit, 116 (0.52%) are marked active. 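Calls depend on retest data that are not deposited; infection was ranked per plate without normalising between plates; the unit of the infection score is not given.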 Raw values are not corrected between plates. Entries without a mark were called inactive. The numbers tell different reagents against one gene apart. Not given: the amount of reagent, the time to read-out.
gene,reagent no.,"infection score, replicate 1","infection score, replicate 2","cell count, replicate 1","cell count, replicate 2"
Tgi,1,2.73,1.17,6709,6825
Tgi,2,0.64,0.49,6051,6561
Tgi,3,10,9.78,5941,4623
beat-IIa,1,11.9,4.72,3585,530
beat-IIa,2,5.88,17.4,6616,4688
pnt,1,5.3,12.9,5061,6021
pnt,2,0.27,19.6,376,3739
AOX1,1,13.5,12.2,6257,6475
AOX1,2,16.8,22.3,3272,4533
Pdf,1,3.94,7.96,6473,5993
Blos3,1,12.1,0.81,6191,6290
Trf4-2,1,0.8,4.23,5848,5488
Trf4-2,2,3.16,9.12,6545,7086
CG15029 (retired record),1,3.52,4.92,6481,6909
CG15029 (retired record),2,27.9,15.4,5335,6110
CG13319,1,2.33,3.36,6058,6069
dany,1,4.7,7.46,6664,6796
CG3698,1,2.86,25.2,6739,6000
CG3698,2,0.41,4.78,6658,6145
CG6985,1,13.3,6.65,6282,6905
CG6985,2,4.56,1.88,6693,6314
CG7565,1,2.66,5.99,6463,6629
CG5787,1,2.87,5.32,6166,5398
CG5787,2,1.08,,463,372

6 neighbouring records from above, for reference:
gene,reagent no.,"infection score, replicate 1","infection score, replicate 2","cell count, replicate 1","cell count, replicate 2"
CG3698,1,2.86,25.2,6739,6000
CG3698,2,0.41,4.78,6658,6145
CG6985,1,13.3,6.65,6282,6905
CG6985,2,4.56,1.88,6693,6314
CG7565,1,2.66,5.99,6463,6629
CG5787,1,2.87,5.32,6166,5398

The list goes on:
gene,reagent no.,"infection score, replicate 1","infection score, replicate 2","cell count, replicate 1","cell count, replicate 2"
CG15199,1,2.7,6.22,6551,5936
Cp18,1,0.75,1.88,6782,6331
CG4278,1,26.4,18,5680,6520
puf,1,0.95,2.14,6076,514
CG13771,1,1.5,0.78,5800,6893
CG13594,1,1.35,17.6,6864,6294
CG13594,2,1.55,2.39,6845,6519
CG13982,1,3.61,1.89,5894,5834
CG33177,1,3.1,3.17,6486,6882
rux,1,4.07,2.02,6283,6444
side-II,1,8.37,3.77,5126,6921
side-II,2,5.99,3.3,6442,6578
side-II,3,3.34,1.53,5986,6648
side-II,4,1.5,2.9,6197,6510
side-II,5,1.65,2.7,6498,6156
Mlc-c,1,1.83,5.09,5676,6175
Mlc-c,2,2.77,2.44,6144,6434
CCHa1-R,1,7.65,15.6,6728,4908
CCHa1-R,2,11.6,33.7,4625,6221
DNAlig1,1,14.2,43.1,5662,4897
mbl,1,1.92,7.66,6098,6358
mbl,2,6.52,6.95,5769,1684
AANATL4,1,2.95,4.3,6618,5999
Dnali1,1,9.92,9.24,6412,6842
Erk7,1,5.37,8.42,6182,6742
Erk7,2,6.23,18.7,6343,6233
Erk7,3,12.8,38.9,7125,5144
PsGEF,1,1.87,9.43,1069,6014
PsGEF,2,1.25,13.6,7021,5758
CG10822,1,3.96,1.39,6068,5892
l(2)37Bb,1,6.21,5.45,6103,6336
CG30486,1,9.18,18.2,6723,5939
Nadk2,1,7.88,6.13,6331,6481
nclb,1,6.61,5.25,7009,6056
